Anti-infective test results gathered from many reports (values: NIAID ChemDB through PubChem).

Shared fields: whole-cell or culture tests

An empty or dashed field is not shown.

compound,agent,strain,cell line,method,read-out,dose,value
C=CCc1ccc(O)c(OC)c1,Candida tropicalis,2854,,turbidity,MIC90,,485 µg/mL
CCOC(=O)c1ccc(OCCC2CCN(c3ccc(C)nn3)CC2)cc1,Rhinovirus,58750 (ICAM-1 receptor group 43),KB,neutral red,EC50,,0.089 µM
Oc1cccc(C=Nc2ccccc2O)c1,Cryptococcus gattii,196L/03,,,MIC99,,8 µg/mL
Cc1cc(CCCOc2c(C)cc(-c3noc(C(F)(F)F)n3)cc2C)on1,Rhinovirus,Isolate 35,OHIO HELA-I,cytopathic effect / visual reading,EC50,,0.05 µg/mL
Cc1nc(NCCCCNc2ccnc3cc(Cl)ccc23)nc(-c2ccccc2[N+](=O)[O-])c1C(=O)OC(C)C,Cryptococcus gattii,23/10993,,,MIC99,,5.7 µg/mL
NS(=O)(=O)O,Herpes simplex virus,,Human amnion AV3 cells,cytopathic effect,inhibition,5 µg/mL,0%
Nc1nc2c(ncn2COCCO)c(=O)[nH]1,Varicella zoster virus,OKA,HELF,plaque count,inhibition,1 µg/mL,57%
Cc1cc(-c2ccc(N=Nc3c(N)c(S(=O)(=O)O)cc4cc(S(=O)(=O)O)ccc34)c(C)c2)ccc1N=Nc1c(N)ccc2cc(S(=O)(=O)O)ccc12,Adenovirus,TYPE 3,Human embryonic lung cells,cytopathic effect,inhibition,10 µg/mL,0%
C=Cc1cn([C@@H]2O[C@H](CO)[C@@H](O)[C@@H]2O)c(=O)[nH]c1=O,Varicella zoster virus,KANNO,HELF,plaque count,inhibition,0.01 µg/mL,0%
O=S(=O)(O)CO,Herpes simplex virus,,Human amnion AV3 cells,cytopathic effect,inhibition,5 µg/mL,0%
O=c1[nH]c(=O)n([C@H]2C[C@H](O)[C@@H](CO)O2)cc1I,Varicella zoster virus,Asahikawa,HELF,plaque count,inhibition,10 µg/mL,100%
CC(=O)N[C@H]1[C@H]([C@H](O)[C@H](O)CO)OC(C(=O)O)=C[C@@H]1N=C(N)N,Influenza B virus,B/Beijing/184/93,MDCK,,EC50,,0.03 µM
O=[N+]([O-])c1ccc(C=Nc2ccccc2O)cc1,Cryptococcus gattii,L 27/01,,,MIC99,,64 µg/mL
Cc1cc(-c2ccc(N=Nc3ccc4c(S(=O)(=O)O)cc(S(=O)(=O)O)c(N)c4c3O)c(C)c2)ccc1N=Nc1ccc2c(S(=O)(=O)O)cc(S(=O)(=O)O)c(N)c2c1O,Adenovirus,TYPE 3,Human embryonic lung cells,cytopathic effect,inhibition,10 µg/mL,0%
Cc1cn([C@@H]2O[C@H](CO)[C@@H](O)[C@@H]2O)c(=O)[nH]c1=O,Varicella zoster virus,YS,HELF,plaque count,inhibition,0.01 µg/mL,0%
Oc1ccc(O)c(C=Nc2ccccc2O)c1,Cryptococcus neoformans,ATCC 28957,,,MIC99,,8 µg/mL
O=[N+]([O-])c1cc([N+](=O)[O-])c2ccc(S(=O)(=O)O)cc2c1O,Herpes simplex virus,,Human amnion AV3 cells,cytopathic effect,inhibition,5 µg/mL,0%
Oc1ccccc1C=Nc1ccccc1O,Cryptococcus gattii,196L/03,,,MIC99,,11.3 µg/mL
NCCS(=O)(=O)O,Herpes simplex virus,,Human amnion AV3 cells,cytopathic effect,inhibition,10 µg/mL,0%
Oc1ccccc1N=Cc1ccc2c(c1)OCO2,Cryptococcus gattii,ATCC 32608,,,MIC99,,16 µg/mL
O=c1[nH]c(=O)n([C@@H]2O[C@H](CO)[C@@H](O)[C@@H]2O)cc1/C=C/Br,Varicella zoster virus,OKA,HELF,plaque count,inhibition,0.001 µg/mL,97%

Repeating the first 3 entries:

compound | agent | strain | cell line | method | read-out | dose | value
C=CCc1ccc(O)c(OC)c1 | Candida tropicalis | 2854 |  | turbidity | MIC90 |  | 485 µg/mL
CCOC(=O)c1ccc(OCCC2CCN(c3ccc(C)nn3)CC2)cc1 | Rhinovirus | 58750 (ICAM-1 receptor group 43) | KB | neutral red | EC50 |  | 0.089 µM
Oc1cccc(C=Nc2ccccc2O)c1 | Cryptococcus gattii | 196L/03 |  |  | MIC99 |  | 8 µg/mL

ECn is the concentration giving n% inhibition of infection, replication or growth. Conditions beyond the fields shown may differ between rows. Inhibition is in % at the dose shown (toxicity tests: loss of growth or viability). A number after MIC or MFC names an inhibition level or a share of isolates.